Assay: Example 3: pH and redox of treated process water
Assay type: physicochemical

SMILES: OCl [sodium hypochlorite]
- pH (untreated 7.6): 7.7
- Redox (untreated 165): 154

From patent US11530514B2, “Method for manufacturing a fibrous web” (Kemira Oyj, priority 2017, dated 2022)
